How the values were obtained:
[1] = system: PrP; assay: Proteinase K digestion of cell lysates, immunoblot of 21 kDa PK-resistant PrPSc-like fragment; details: 16 hours
[2] = system: MoPrP cells; details: within 12 hrs of proteasome inhibitor (MG132) treatment

Row | Molecule | yield of 21 kDa PK-resistant band ([1]; 50 μM MG132 compared with 10 μM Lactacystin) | cells died [2] | yield of 21 kDa PK-resistant fragment ([1]; 5 μM epoxomicin compared with 1 μM epoxomicin)
1 | CC(C)C[C@@H](C=O)NC(=O)[C@H](CC(C)C)NC(=O)[C@H](CC(C)C)NC(=O)OCc1ccccc1 [MG132] | much more of the 21 kDa PK-resistant band | less than 5% | –
2 | epoxomicin | – | – | much more of the 21 kDa PK-resistant fragment

From patent US20040048237A1 (priority 2002, published 2004)
